Pooled drug test results. Numbers come from NIAID ChemDB, via PubChem.

All rows: tests in culture; agent: HIV-1; endpoint: EC50

ECn: concentration that inhibits the pathogen or its effect by n%. Conditions beyond the fields shown may differ between rows. An empty or dashed field is not shown. a–b is a range or a potency band.

{"compound": "Cc1ncc(-c2ccc(N(C)CCOc3ccc(F)cc3)cn2)c(N2CCC(C)(C)CC2)c1[C@H](OC(C)(C)C)C(=O)O", "read by": "luminescence", "strain": "NL4-3", "cells": "MT-2", "value": "0.0016 µM"}
{"compound": "CC(C)C1=C2[C@H]3CC[C@@H]4[C@@]5(C)CC[C@H](OC(=O)[C@H]6C[C@@H](C(=O)O)C6(C)C)C(C)(C)[C@@H]5CC[C@@]4(C)[C@]3(C)CC[C@@]2(CCNC(=O)CN2CCOCC2)CC1=O", "read by": "p24 / ELISA", "strain": "92HT599", "cells": "MT-2", "value": "<1 µM"}
{"compound": "CC(C)=CCOc1cc(NC(=S)c2ccsc2C)ccc1Cl", "changes": "RT-V106I", "read by": "cytopathic effect / XTT", "strain": "NL4-3 (RT V106I)", "cells": "CEM + CEM-SS", "value": "0.08 µM"}
{"compound": "CC(C)C1=C2[C@H]3CC[C@@H]4[C@@]5(C)CC[C@H](OC(=O)[C@H]6C[C@@H](C(=O)O)C6(C)C)C(C)(C)[C@@H]5CC[C@@]4(C)[C@]3(C)CC[C@@]2(CCNCC(C)(C)NC(=O)c2ccc3ccccc3n2)CC1=O", "read by": "p24 / ELISA", "strain": "92HT599", "cells": "MT-2", "value": "<1 µM"}
{"compound": "Cc1ccc(OCCN(C)c2ccc(-c3cnc(C)c([C@H](OC(C)(C)C)C(=O)O)c3N3CCC(C)(C)CC3)nc2)cc1", "read by": "luminescence", "strain": "NL4-3", "cells": "MT-2", "value": "0.0016 µM"}
{"compound": "Nc1nc(NC2CC2)c2ncn([C@H]3C=C[C@@H](CO)C3)c2n1", "changes": "M41L/K67N/K70R/A98G/K101E/M184V/G190A/L210W/T215Y/K219E", "read by": "recombinant virus assay", "strain": "Clinical isolate", "cells": "MT-2", "value": "0.968 µM"}
{"compound": "C[C@@H]1CN(C(=O)c2ccccc2)CCN1C(=O)C(=O)c1c[nH]c2c(NC(=O)NCCCCCC(=O)O)cccc12", "read by": "luciferase / reporter gene", "cells": "HeLa", "value": "<1 µM"}
{"compound": "Cc1nc2ccccc2c(-c2cc(F)c3c(c2C)CCCO3)c1[C@H](OC(C)(C)C)C(=O)O", "changes": "N155H", "read by": "luminescence", "strain": "NL4-3", "cells": "MT-4", "value": "0.016 µM"}
{"compound": "Cc1cccc(Cl)c1OCCN(C)c1ccc(-c2cnc(C)c([C@H](OC(C)(C)C)C(=O)O)c2N2CCC(C)(C)CC2)cn1", "read by": "luminescence", "strain": "NL4-3", "cells": "MT-2", "value": "0.002 µM"}
{"compound": "C#C[C@@]1(CO)C=C[C@H](n2cc(C)c(=O)[nH]c2=O)O1", "changes": "A62V/T69ins/V75I/A98G/K103S/G190A", "read by": "recombinant virus assay", "strain": "Clinical isolate", "cells": "MT-2", "value": ">46.2 µM"}
{"compound": "CCC(=O)c1ccc(F)c([C@@H]2C[C@@H]2NC(=O)Nc2ccc(C#N)cn2)c1O", "changes": "NNRTI-resistant (RT Y181I)", "read by": "β-galactosidase / luminescence", "strain": "LAI", "cells": "TZM-bl", "value": "≥0.0625 µM"}
{"compound": "Cc1cc(S(N)(=O)=O)ccc1NC(=O)COc1ccc(Cl)cc1C(=O)c1cc(Cl)cc(C#N)c1", "changes": "RT-K103N P225H", "read by": "β-galactosidase", "strain": "HXB2", "cells": "HeLa + HELA CD4+", "value": "<0.01 µM"}
{"compound": "COc1ccc(OCCN(C)c2ccc(-c3cnc(C)c([C@H](OC(C)(C)C)C(=O)O)c3N3CCC(C)(C)CC3)nc2)cc1", "read by": "luminescence", "strain": "NL4-3", "cells": "MT-2", "value": "0.0006 µM"}
{"compound": "Cc1cc(C#N)cc(C(=O)c2cc(Cl)ccc2OCC(=O)Nc2ccc(S(N)(=O)=O)cc2C)c1", "read by": "β-galactosidase", "strain": "WTRVA", "cells": "HeLa + HELA CD4+", "value": "<0.01 µM"}
{"compound": "CC(C)CN(C[C@@H](O)[C@H](Cc1ccccc1)NC(=O)O[C@H]1CCOC1)S(=O)(=O)c1ccc(N)cc1", "changes": "V32I L76V V82I", "read by": "reporter gene", "strain": "T13572", "cells": "MT-4", "value": "4816 nM"}
{"compound": "CC1CC(C)CN(S(=O)(=O)c2ccccc2[N+](=O)[O-])C1", "read by": "GFP / fluorescence", "strain": "83-2/B1-T20r", "cells": "HeLa", "value": "0.22 µM"}
{"compound": "COC(=O)[C@H]1OC(C)(C)O[C@@H]1C(=O)Nc1cccc2c(C(=O)C(=O)N3CCN(C(=O)c4ccccc4)C[C@H]3C)c[nH]c12", "read by": "luciferase / reporter gene", "cells": "HeLa", "value": "<1 µM"}
{"compound": "CC(C)=CCOc1cc(NC(=S)c2ccoc2C)ccc1Cl", "changes": "RT-L74V", "read by": "cytopathic effect / XTT", "strain": "NL4-3 (RT L74V)", "cells": "CEM + CEM-SS", "value": "0.006 µM"}
{"compound": "CC1(C)CC=C(c2cn(-c3nccc(C(=O)NC4CCC(N5CC6CCC(C5)O6)CC4)n3)c3ccc(F)c([C@H](OC(C)(C)C)C(=O)O)c23)CC1", "changes": "E138K/Q148K", "read by": "luminescence", "strain": "NL4-3", "cells": "MT-4", "value": "0.0029 µM"}
{"compound": "CCCc1cc(=O)oc2c3c(c4c(c12)OC(C)(C)CC4)O[C@@H](C)[C@H](C)[C@@H]3O", "changes": "RT-Y188H", "read by": "XTT", "strain": "Costatolide-resistant (RT Y188H)", "cells": "CEM + CEM-SS", "value": ">27 µM"}
{"compound": "CC(C)c1c(Cc2ccccc2)n(COCc2ccccc2)c(=O)[nH]c1=O", "changes": "K103N/Y181C", "read by": "p24 / ELISA", "strain": "A17", "cells": "TZM-bl", "value": ">10 µM"}
{"compound": "Cc1ncc(-c2ccc(OCC3CCCCC3)nc2)c(N2CCC(C)(C)CC2)c1[C@H](OC(C)(C)C)C(=O)O", "read by": "luminescence", "strain": "NL4-3", "cells": "MT-2", "value": "0.0045 µM"}
{"compound": "CC(C)C1=C2[C@H]3CC[C@@H]4[C@@]5(C)CC[C@H](OC(=O)[C@H]6C[C@@H](C(=O)O)C6(C)C)C(C)(C)[C@@H]5CC[C@@]4(C)[C@]3(C)CC[C@@]2([C@@H](O)CNCC(C)(C)NC(=O)c2ccc(OCCN3CCOCC3)cc2)CC1=O", "read by": "p24 / ELISA", "strain": "92HT599", "cells": "MT-2", "value": "<1 µM"}
{"compound": "Cc1ncc(-c2ccc(NCCOc3ccc(F)cc3F)nc2)c(N2CCC(C)(C)CC2)c1[C@H](OC(C)(C)C)C(=O)O", "read by": "luminescence", "strain": "NL4-3", "cells": "MT-2", "value": "0.0016 µM"}
{"compound": "Cc1cc(Cl)cc(C(=O)c2cc(Cl)ccc2OCC(=O)Nc2ccc(S(N)(=O)=O)cc2C)c1", "read by": "cytopathic effect / propidium iodide", "strain": "IIIB", "cells": "MT-4", "value": "0.011–0.1 µM"}
{"compound": "C[C@@H]1CN(C(=O)c2ccccc2)CCN1C(=O)C(=O)c1c[nH]c2c(NC(=O)CCC(=O)O)cccc12", "read by": "luciferase / reporter gene", "cells": "HeLa", "value": "<1 µM"}
{"compound": "Cc1cc(C)cc(C(=O)c2cc(Cl)ccc2OCC(=O)Nc2ccc(S(N)(=O)=O)cc2C)c1", "read by": "cytopathic effect / propidium iodide", "strain": "IIIB", "cells": "MT-4", "value": "<0.01 µM"}
{"compound": "CCCCO[C@H](C(=O)O)c1c(C)ncc(-c2ccc(OCC(F)(F)CC)cn2)c1N1CCC(C)(C)CC1", "read by": "luminescence", "strain": "NL4-3", "cells": "MT-2", "value": "0.0316 µM"}
{"compound": "Cc1cc(S(N)(=O)=O)ccc1NC(=O)COc1ccc(Cl)cc1C(=O)c1cccc(C#N)c1", "changes": "RT-K103N L100I", "read by": "β-galactosidase", "strain": "HXB2", "cells": "HeLa + HELA CD4+", "value": "<0.01 µM"}
{"compound": "CC(C)C1=C2[C@H]3CC[C@@H]4[C@@]5(C)CC[C@H](OC(=O)[C@H]6C[C@@H](C(=O)O)C6(C)C)C(C)(C)[C@@H]5CC[C@@]4(C)[C@]3(C)CC[C@@]2([C@@H](O)CNCC(F)NC(=O)c2ccc(Cl)cc2)CC1=O", "read by": "p24 / ELISA", "strain": "92HT599", "cells": "MT-2", "value": "<1 µM"}
{"compound": "C[C@@H]1CN(C(=O)c2ccccc2)CCN1C(=O)C(=O)c1c[nH]c2c(NC(=O)NCCCCCCCCNC(=O)Nc3ccc(B(O)O)cc3)cccc12", "read by": "luciferase / reporter gene", "cells": "HeLa", "value": "<1 µM"}
{"compound": "Cc1ccc(C)n1-c1ccc(C(=O)O)c(O)c1", "read by": "luciferase / cell fusion", "strain": "CMU02 X4 CLADE EA", "cells": "PBMC/5.25M7", "value": "34.5 µM"}
{"compound": "Cc1cc(S(N)(=O)=O)ccc1NC(=O)COc1ccc(Cl)cc1C(=O)c1cc(F)cc(F)c1", "changes": "RT-P225H", "read by": "β-galactosidase", "strain": "HXB2", "cells": "HeLa + HELA CD4+", "value": "<0.01 µM"}
{"compound": "CC(C)C1=C2[C@H]3CC[C@@H]4[C@@]5(C)CC[C@H](OC(=O)[C@H]6C[C@@H](C(=O)O)C6(C)C)C(C)(C)[C@@H]5CC[C@@]4(C)[C@]3(C)CC[C@@]2([C@@H](O)CNC(=O)C(CCN)NC(=O)c2ccc(Cl)cc2)CC1=O", "read by": "p24 / ELISA", "strain": "92HT599", "cells": "MT-2", "value": "<1 µM"}
{"compound": "Cc1cc(OCCCN2CCOCC2)ccc1NC(=O)COc1ccc(Cl)cc1C(=O)c1cccs1", "changes": "RT-Y181C", "read by": "β-galactosidase", "strain": "HXB2", "cells": "HeLa + HELA CD4+", "value": "0.011–0.1 µM"}
{"compound": "[2H]C(CN)(CNC(=O)C[C@@]12CC[C@]3(C)[C@H](CC[C@@H]4[C@@]5(C)CC[C@H](OC(=O)[C@H]6C[C@@H](C(=O)O)C6(C)C)C(C)(C)[C@@H]5CC[C@]43C)C1=C(C(C)C)C(=O)C2)NC(=O)c1ccc(Cl)cc1", "read by": "p24 / ELISA", "strain": "92HT599", "cells": "MT-2", "value": "<1 µM"}
{"compound": "CC(C)=CCN1Cc2cccc3[nH]c(=O)n(c23)CC1C", "read by": "cytopathic effect / XTT", "strain": "IIIB", "cells": "CEM + CEM-SS", "value": "0.1 µM"}

For reference, 5 entries again:

compound	changes	read by	strain	cells	value
CC(C)=CCOc1cc(NC(=S)c2ccsc2C)ccc1Cl	RT-V106I	cytopathic effect / XTT	NL4-3 (RT V106I)	CEM + CEM-SS	0.08 µM
CC(C)CN(C[C@@H](O)[C@H](Cc1ccccc1)NC(=O)O[C@H]1CCOC1)S(=O)(=O)c1ccc(N)cc1	V32I L76V V82I	reporter gene	T13572	MT-4	4816 nM
CC1(C)CC=C(c2cn(-c3nccc(C(=O)NC4CCC(N5CC6CCC(C5)O6)CC4)n3)c3ccc(F)c([C@H](OC(C)(C)C)C(=O)O)c23)CC1	E138K/Q148K	luminescence	NL4-3	MT-4	0.0029 µM
COc1ccc(OCCN(C)c2ccc(-c3cnc(C)c([C@H](OC(C)(C)C)C(=O)O)c3N3CCC(C)(C)CC3)nc2)cc1		luminescence	NL4-3	MT-2	0.0006 µM
Cc1ccc(OCCN(C)c2ccc(-c3cnc(C)c([C@H](OC(C)(C)C)C(=O)O)c3N3CCC(C)(C)CC3)nc2)cc1		luminescence	NL4-3	MT-2	0.0016 µM